{"source": "PubChem BioAssay AID504761 (Drosophila RNAi Screening Center, 2011)", "screen": "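Genome-wide fly cell screen for genes dengue virus requires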 (primary screen)", "cell system": "D.Mel-2 cells from Drosophila", "knock-down reagent": "long dsRNA against Drosophila genes", "challenge": "infection with dengue virus type 2; dose and infection time not stated", "detection": "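Per well on two replicate plates, imaging gave the percent of cells positive for viral envelope protein, ranked by infection, and a nuclear count of cells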", "scale": "infection score: higher = more virus-infected cells; cell count: higher = more cells in the well", "active means": "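Low infection ranks in the two replicates (chance level up to 0.065) followed by a retest with a 1.5-fold or larger significant decrease, p below 0.05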", "meaning of the calls": "active = confirmed: knock-down lowers infection; inactive = not picked or not confirmed", "note": "The screen tested about 22,000 reagents; below is an unselected part of those with a known target gene and a result. Over the whole deposit, 116 (0.52%) were called active. 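Calls depend on retest data that are not deposited; infection was ranked per plate without normalising between plates; the unit of the infection score is not given.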 The raw values are shown without normalisation. Not stated in the record: the amount of reagent, the time to read-out."}
{"gene":"CG32815","dsRNA":"DRSC18177","infection score, replicate 2":1.31,"cell count, replicate 1":363,"cell count, replicate 2":761,"call":"inactive"}
{"gene":"CG32815","dsRNA":"DRSC29799","infection score, replicate 1":8.03,"infection score, replicate 2":3.58,"cell count, replicate 1":6162,"cell count, replicate 2":6068,"call":"inactive"}
{"gene":"Nuak","dsRNA":"DRSC14414","infection score, replicate 1":2.86,"infection score, replicate 2":9.5,"cell count, replicate 1":6468,"cell count, replicate 2":6803,"call":"inactive"}
{"gene":"Nuak","dsRNA":"DRSC14415","infection score, replicate 1":13.8,"infection score, replicate 2":14.3,"cell count, replicate 1":6183,"cell count, replicate 2":5759,"call":"inactive"}
{"gene":"Nuak","dsRNA":"DRSC14416","infection score, replicate 1":2,"infection score, replicate 2":31.4,"cell count, replicate 1":7012,"cell count, replicate 2":5463,"call":"inactive"}
{"gene":"rhi","dsRNA":"DRSC05996","infection score, replicate 1":28.8,"infection score, replicate 2":17.9,"cell count, replicate 1":5893,"cell count, replicate 2":6573,"call":"inactive"}
{"gene":"SMC3","dsRNA":"DRSC20227","infection score, replicate 1":15.1,"infection score, replicate 2":0.77,"cell count, replicate 1":5001,"cell count, replicate 2":6325,"call":"inactive"}
{"gene":"CG7763","dsRNA":"DRSC07043","infection score, replicate 1":5.6,"infection score, replicate 2":21.9,"cell count, replicate 1":1679,"cell count, replicate 2":6170,"call":"inactive"}
{"gene":"Ercc1","dsRNA":"DRSC07424","infection score, replicate 1":9.72,"infection score, replicate 2":10.3,"cell count, replicate 1":6182,"cell count, replicate 2":6406,"call":"inactive"}

No new results follow: entries from further up.
{"gene":"Nuak","dsRNA":"DRSC14414","infection score, replicate 1":2.86,"infection score, replicate 2":9.5,"cell count, replicate 1":6468,"cell count, replicate 2":6803,"call":"inactive"}
{"gene":"Nuak","dsRNA":"DRSC14415","infection score, replicate 1":13.8,"infection score, replicate 2":14.3,"cell count, replicate 1":6183,"cell count, replicate 2":5759,"call":"inactive"}
{"gene":"Nuak","dsRNA":"DRSC14416","infection score, replicate 1":2,"infection score, replicate 2":31.4,"cell count, replicate 1":7012,"cell count, replicate 2":5463,"call":"inactive"}

The list goes on:
{"gene":"GstS1","dsRNA":"DRSC07436","infection score, replicate 1":6.77,"infection score, replicate 2":2.92,"cell count, replicate 1":6843,"cell count, replicate 2":6840,"call":"inactive"}
{"gene":"Prat2","dsRNA":"DRSC09692","infection score, replicate 1":7.67,"infection score, replicate 2":7.02,"cell count, replicate 1":6534,"cell count, replicate 2":6556,"call":"inactive"}
{"gene":"zormin","dsRNA":"DRSC07969","infection score, replicate 1":3.83,"infection score, replicate 2":1.27,"cell count, replicate 1":6195,"cell count, replicate 2":6244,"call":"inactive"}
{"gene":"zormin","dsRNA":"DRSC08210","infection score, replicate 1":3,"infection score, replicate 2":2.4,"cell count, replicate 1":6291,"cell count, replicate 2":6247,"call":"inactive"}
{"gene":"zormin","dsRNA":"DRSC08212","infection score, replicate 1":4.35,"infection score, replicate 2":3.42,"cell count, replicate 1":5860,"cell count, replicate 2":6600,"call":"inactive"}
{"gene":"zormin","dsRNA":"DRSC08213","infection score, replicate 1":3.49,"infection score, replicate 2":2.25,"cell count, replicate 1":5895,"cell count, replicate 2":6478,"call":"inactive"}
{"gene":"zormin","dsRNA":"DRSC08297","infection score, replicate 1":2.35,"infection score, replicate 2":4.68,"cell count, replicate 1":6168,"cell count, replicate 2":6630,"call":"inactive"}
{"gene":"zormin","dsRNA":"DRSC22483","infection score, replicate 1":4.6,"infection score, replicate 2":8.24,"cell count, replicate 1":5498,"cell count, replicate 2":6495,"call":"inactive"}
{"gene":"CG15870","dsRNA":"DRSC06588","infection score, replicate 1":3.37,"infection score, replicate 2":14.4,"cell count, replicate 1":6677,"cell count, replicate 2":3710,"call":"inactive"}
{"gene":"CG15870","dsRNA":"DRSC26344","infection score, replicate 1":11,"infection score, replicate 2":5.65,"cell count, replicate 1":4616,"cell count, replicate 2":6443,"call":"inactive"}
{"gene":"UbcE2M","dsRNA":"DRSC10828","infection score, replicate 1":10.8,"infection score, replicate 2":8.43,"cell count, replicate 1":5525,"cell count, replicate 2":4995,"call":"inactive"}
{"gene":"Sbp2","dsRNA":"DRSC10766","infection score, replicate 1":11.1,"infection score, replicate 2":7.14,"cell count, replicate 1":6429,"cell count, replicate 2":5925,"call":"inactive"}
{"gene":"CG1695","dsRNA":"DRSC20538","infection score, replicate 1":4.72,"infection score, replicate 2":1.94,"cell count, replicate 1":5672,"cell count, replicate 2":6201,"call":"inactive"}
{"gene":"CG1695","dsRNA":"DRSC25561","infection score, replicate 1":3.93,"infection score, replicate 2":3.66,"cell count, replicate 1":6152,"cell count, replicate 2":6012,"call":"inactive"}
{"gene":"Scp1","dsRNA":"DRSC20799","infection score, replicate 1":1.38,"infection score, replicate 2":3.55,"cell count, replicate 1":6651,"cell count, replicate 2":6445,"call":"inactive"}
{"gene":"Scp1","dsRNA":"DRSC20803","infection score, replicate 1":3.74,"infection score, replicate 2":7.69,"cell count, replicate 1":6598,"cell count, replicate 2":6739,"call":"inactive"}
{"gene":"Scp1","dsRNA":"DRSC20806","infection score, replicate 1":3.65,"infection score, replicate 2":1.78,"cell count, replicate 1":6468,"cell count, replicate 2":6108,"call":"inactive"}
{"gene":"CG1635","dsRNA":"DRSC15131","infection score, replicate 1":2.86,"infection score, replicate 2":3.45,"cell count, replicate 1":5986,"cell count, replicate 2":6954,"call":"inactive"}
{"gene":"CG1635","dsRNA":"DRSC25487","infection score, replicate 1":6.29,"infection score, replicate 2":7.66,"cell count, replicate 1":6388,"cell count, replicate 2":5198,"call":"inactive"}
